Compound potency records, mixed from different reports. Data source: NIAID ChemDB in PubChem.

All rows: tests in culture; agent: Plasmodium falciparum

ECn is the concentration giving n% inhibition of infection, replication or growth. Blank or dashed fields: not listed here. Inhibition is in % at the dose shown (toxicity tests: loss of growth or viability). Lines come from different laboratories, so protocols vary.

COc1cc(OC)c(C=C2SC(=O)N(CC(=O)N3CCN(c4ccccc4Cl)CC3)C2=O)c(OC)c1 ; strain: W2 ; changes: Chloroquine-resistant ; method: fluorescence ; read-out: EC50 ; value: 1.11 µM
C/C=C1/CC2CCC3=C(Cc4ccccc43)C2C[C@@H]1C1=CN2c3ccccc3C34CCN5C/C(=C/O)[C@H](C[C@H]53)[C@@H]([C@@H]1O)[C@H]24 ; strain: 3D7 ; read-out: EC90 ; value: 15.1 µg/mL
O[C@H](c1cc(C(F)(F)F)nc2c(C(F)(F)F)cccc12)[C@@H]1CCCCN1 ; strain: FCM29 ; cell line: human red blood cells ; method: broth dilution / radiometric ; read-out: EC50 ; value: 0.0156 µM
CC(C)CN(NC(=O)C1CCC2(CC1)OOC1(OO2)C2CC3CC(C2)CC1C3)c1nc(C#N)ncc1Br ; strain: W2 ; method: flow cytometry ; read-out: MIC ; value: 8 µM
Cc1ccc(C=C2SC(=O)N(CC(=O)N3CCN(c4ccccc4)CC3)C2=O)cc1 ; strain: W2 ; changes: Chloroquine-resistant ; method: fluorescence ; read-out: EC50 ; value: >10 µM
CCCCNCCCCCOc1ccc2ccccc2c1 ; strain: 3D7 ; cell line: Erythrocytes ; method: flow cytometry ; read-out: EC50 ; value: >13.1 µM
CCN(CC)CCCC(C)Nc1ccnc2cc(Cl)ccc12 ; strain: K1 ; cell line: Erythrocyte ; method: LDH ; read-out: EC50 ; value: 0.184 µg/mL
O=P(O)(O)C(O)(Cc1cccnc1)P(=O)(O)O ; strain: 3D7 ; read-out: inhibition ; dose: 38.6 µM ; value: 90%
CCOc1ccc2nc(C)cc(Nc3ccc4c(c3)OCCO4)c2c1 ; strain: K1 ; cell line: Erythrocytes ; method: flow cytometry ; read-out: EC50 ; value: >17.9 µM
COc1ccc(C=C2SC(=O)N(CC(=O)N3CCN(c4ccccc4)CC3)C2=O)cc1 ; strain: W2 ; changes: Chloroquine-resistant ; method: fluorescence ; read-out: EC50 ; value: >10 µM
CCCCN(CCCC)CC(O)COc1cccc2ccccc12 ; strain: 3D7 ; cell line: Erythrocytes ; method: flow cytometry ; read-out: EC50 ; value: 1.55 µM
C[C@@H]1O[C@@H](OC[C@H]2O[C@@H](Oc3c(-c4ccc(O)c(O)c4)oc4cc(O)cc(O)c4c3=O)[C@H](O)[C@@H](O)[C@@H]2O)[C@H](O)[C@H](O)[C@H]1O ; strain: Clinical isolates ; read-out: EC90 ; value: 60.6 µM
COc1cc(OC)c(C=C2SC(=O)N(C)C2=O)c(OC)c1 ; strain: W2 ; changes: Chloroquine-resistant ; method: fluorescence ; read-out: EC50 ; value: >10 µM
CC(C)(O)[C@H](O)COc1c2occc2cc2ccc(=O)oc12 ; strain: CQ-sensitive ; cell line: RBC ; read-out: EC90 ; value: 29 µg/mL
c1ccc(C(CCNCC2(c3ccc4c(c3)OCCO4)CCOCC2)c2ccccc2)cc1 ; strain: 3D7 ; cell line: Erythrocytes ; method: flow cytometry ; read-out: EC50 ; value: >13.8 µM
C/C=C1/CN2CCC34c5ccccc5N5C=C6[C@H]7C[C@@H]8N(CCC89c8ccccc8N(C=C([C@H]1C[C@H]23)[C@H]54)[C@@H]69)C/C7=C/C ; strain: W2 ; read-out: EC90 ; value: 2.969 µg/mL
CCN(CC)CCCC(C)Nc1ccnc2cc(Cl)ccc12 ; strain: FcB1 ; cell line: human red blood cells ; method: broth dilution / radiometric ; read-out: EC50 ; value: 0.102 µM
C=CC1CN2CC[C@H]1CC2C(OC(=O)C1CC1)c1ccnc2ccccc12 ; strain: K1 ; cell line: Erythrocytes ; method: flow cytometry ; read-out: EC50 ; value: 0.3178 µM

A second listing of 2 rows from above:

SMILES	strain	changes	cell line	method	read-out	dose	value
COc1ccc(C=C2SC(=O)N(CC(=O)N3CCN(c4ccccc4)CC3)C2=O)cc1	W2	Chloroquine-resistant	-	fluorescence	EC50	-	>10 µM
c1ccc(C(CCNCC2(c3ccc4c(c3)OCCO4)CCOCC2)c2ccccc2)cc1	3D7	-	Erythrocytes	flow cytometry	EC50	-	>13.8 µM